Results of unrelated studies side by side (data: NIAID ChemDB).

Shared fields: growth or infection tests; species: Candida albicans; read-out: MIC

An empty or dashed field is not shown. Neighbouring rows are from separate reports.

| structure | strain | read by | result |
|---|---|---|---|
| CC(C)(C)c1ccc(COC(Cn2ccnc2)c2ccccc2)cc1 | CA2 |  | 128 µg/mL |
| C[C@@H](N1CCN(c2ccc(-n3cnnn3)cc2)C1=O)[C@@](O)(Cn1cncn1)c1ccc(F)cc1F | IFO 0583 |  | 2 µg/mL |
| CO[C@@H]1[C@H]2OC(C)(C)O[C@H]2O[C@@H]1C1=NOC(OC(C)=O)C1 |  |  | >50 µg/mL |
| Clc1ccc2c(c1)OCC(n1ccnc1)/C2=N\Nc1ccccc1 | PTCC 5027 | agar | 16 µg/mL |
| COc1ccc2nc(C(C)C)c(=O)[nH]c2c1Cl |  |  | >200 µM |
| CC[C@@H](C)n1ncn(-c2ccc(N3CCN(c4ccc(OC[C@H]5CO[C@](Cn6cncn6)(c6ccccn6)O5)cc4)CC3)cc2)c1=O | GEN-45 |  | ≤0.03 µg/mL |
| CC1Oc2ccccc2/C(=N/Nc2ccccc2)C1n1ccnc1 | PTCC 5027 | agar | 8 µg/mL |
| CC(N1CCN(c2ccc(-n3cnnn3)cc2)C1=O)[C@@](O)(Cn1cncn1)c1ccc(F)cc1F | IFO 0583 |  | >16 µg/mL |
| CO[C@@H]1[C@H]2OC(C)(C)O[C@H]2O[C@@H]1C1=NOC(CBr)C1 |  |  | >50 µg/mL |
| Cc1c(Cl)[n+](=O)c2cc(Cl)ccc2n1[O-] | Clinical isolate 20 |  | 7.8 µg/mL |
| CCCNC(=S)c1ccc[nH]c1=S |  |  | 20 µg/mL |
| Clc1ccc(-c2csc(N3N=C(c4cccs4)CC3c3ccccc3)n2)cc1 | Clinical isolates |  | 125 µg/mL |
| O=C(CCN1C(=O)S/C(=C\c2ccccc2Cl)C1=O)Nc1ccc([N+](=O)[O-])cc1 |  |  | 6.25 µg/mL |
| NNC(=O)c1cc2ccccc2cc1O | ATCC 2091 |  | 250 µg/mL |
| Cc1ccc(/C=C2\SC(=O)N(CCC(=O)Nc3ccccc3O)C2=O)c(C)c1 |  |  | 12.5 µg/mL |
| Nc1cccc2nc(C(F)(F)F)c(=O)[nH]c12 |  |  | >200 µM |
| CC(=O)C[C@@H]1C[C@H]2[C@H]([C@@H]3c4[nH]c5ccccc5c4CCN13)[C@H](O)C13CC/C=C\CCCCN1CC21CC/C=C\CCCNC13 |  |  | >20 µg/mL |
| O=C(NN1C(=O)/C(=C/c2cc3ccccc3nc2Cl)N=C1c1ccccc1)c1cccc(O)c1 | MTCC 227 | broth dilution | 1000 µg/mL |
| CC1CCCCc2c(O)cccc2/C(=C(O)/C=C/C=C/C=C/C(=O)O)C(=O)O1 |  |  | >64 µg/mL |
| O=C(NN1C(=O)/C(=C/c2cc3ccccc3nc2Cl)N=C1c1ccccc1)c1cccc([N+](=O)[O-])c1 | MTCC 227 | broth dilution | 200 µg/mL |
| O=C(NNC(=S)NC1CCCCC1)c1cc2ccccc2cc1O | ATCC 2091 |  | 500 µg/mL |
| CC1(C)C(O)CC[C@@]2(C)C1CC[C@]1(C)C2[C@H](O)C=C2C3C[C@@](C)(C(=O)O)CC[C@]3(C)CC[C@]21C |  | absorbance | 63 µg/mL |
| Cc1ccc(NC(=O)CCN2C(=O)S/C(=C\c3ccccc3Cl)C2=O)cc1 |  |  | >100 µg/mL |
| CC[C@@H](C)n1ncn(-c2ccc(N3CCN(c4ccc(OC[C@@H]5CO[C@@](Cn6cncn6)(c6ccccn6)O5)cc4)CC3)cc2)c1=O | GEN-45 |  | ≤0.03 µg/mL |
| O=[n+]1c(Sc2ccccc2)c(CBr)n([O-])c2ccccc21 | Clinical isolate 12 |  | 31.25 µg/mL |
| COc1ccc(OC[C@H]2CC(Cn3ccnc3)(c3ccco3)N(C)O2)cc1 | ATCC26232 |  | 70 µg/mL |
| CN(CCCC#CC(C)(C)C)c1cccc2c1CCC(=O)N2 | Clinical isolate 1 |  | 62.5 µg/mL |
| C[C@H](CCC(=O)NCCS(=O)(=O)O)[C@H]1CC[C@H]2[C@@H]3CC[C@@H]4C[C@H](OS(=O)(=O)O)CC[C@]4(C)C3CC[C@]12C | ATCC 14053 |  | >500 µg/mL |
| CC(C)(C)c1ccc(COC(Cn2ccnc2)c2ccc(Cl)cc2Cl)cc1 | 5M |  | >128 µg/mL |
| CCCCCNC(=S)c1ccc[nH]c1=S |  |  | 30 µg/mL |
| Cc1ccc(C(Cn2ccnc2)OCc2ccc(-c3ccccc3)cc2)cc1 | Y0109 |  | 64 µg/mL |
| Oc1cc2ccccc2cc1-c1n[nH]c(=S)n1Cc1ccccc1 | ATCC 2091 |  | 125 µg/mL |
| CC1(C)O[C@H]2O[C@H](C3=NOC(CBr)C3)[C@H](OCc3ccccc3)[C@H]2O1 |  |  | >50 µg/mL |
| CC(C)c1nc2ccc(Cl)c(Cl)c2[nH]c1=O |  |  | >200 µM |
| COc1ccc(-c2csc(N3N=C(c4cccs4)CC3c3ccc(F)cc3)n2)cc1 | Clinical isolates |  | 125 µg/mL |
| CSC1=C(Nc2ccc(CCCC(=O)O)cc2)C(=O)c2cccnc2C1=O | ATCC 10231 |  | 25 µg/mL |
| C=CC(C)(/C=C\c1ccc(O)cc1)c1ccc(O)cc1 | IFO 1594 |  | 50 µg/mL |
| COc1ccc(OC[C@@H]2CC(Cn3ccnc3)(c3ccco3)N(C)O2)cc1 | ATCC26232 |  | 70 µg/mL |
| COc1ccc2cc3[n+](cc2c1OC)CCc1cc2c(cc1-3)OCO2 | ATCC28838 |  | 125 µg/mL |
| CN1O[C@@H](c2ccc(Cl)cc2)CC1(Cn1ccnc1)c1ccco1 | ATCC26232 |  | 20 µg/mL |
| Clc1ccc(C(Cn2ccnc2)OC/C=C/c2ccccc2)c(Cl)c1 | Y0109 |  | 4 µg/mL |
| COC(=O)c1cc2ccccc2cc1-c1nn(C(C)=O)c(=S)n1C1CCCCC1 | ATCC 2091 |  | 250 µg/mL |
| COc1cc(O)c2c(=O)cc(-c3ccc(OC)c(OC)c3)oc2c1 | ATCC 10231 |  | 6.25 µg/mL |
| CSC1=C(Nc2cc(C(F)(F)F)cc(C(F)(F)F)c2Br)C(=O)c2cccnc2C1=O | ATCC 10231 |  | 50 µg/mL |
| O=C(NN1C(=O)/C(=C/c2cc3ccccc3nc2Cl)N=C1c1ccccc1)c1ccc([N+](=O)[O-])cc1 | MTCC 227 | broth dilution | 100 µg/mL |
| Clc1ccc(C(Cn2ccnc2)OCc2ccc(-c3ccccc3)cc2)c(Cl)c1 | CA7 |  | 64 µg/mL |
| CCOc1cc2c(cc1F)n([O-])c(C)c(Cl)[n+]2=O | Clinical isolate 10 |  | 15.6 µg/mL |
| COc1ccc2nc(C(C)C)c(=O)[nH]c2c1 |  |  | >200 µM |
| CCOC(=O)c1ccc(NC2=C(SC)C(=O)c3ncccc3C2=O)cc1 | ATCC 10231 |  | 12.5 µg/mL |
| CCCN=c1ssc2ncccc12 |  |  | 20 µg/mL |
| O=[N+]([O-])c1ccc(C2CC(c3cccs3)=NN2c2nc(-c3ccc(Cl)cc3)cs2)cc1 | Clinical isolates |  | 125 µg/mL |
| COc1cc(O)c2c(=O)c(OC)c(-c3ccc(O)c(OC)c3)oc2c1 | ATCC 10231 |  | 3.1 µg/mL |
| Oc1cc2ccccc2cc1-c1nnc(Nc2ccc(F)cc2)s1 | ATCC 2091 |  | 125 µg/mL |
| CC1(C)C(=O)CC[C@@]2(C)C1CC[C@]1(C)[C@@H]2[C@H](O)C=C2[C@@H]3C[C@@](C)(C(=O)O)CC[C@]3(C)CC[C@]21C |  | absorbance | 63 µg/mL |
| CC1(C)S[C@@H]2[C@H](NC(=O)[C@H](N)c3ccccc3)C(=O)N2[C@H]1C(=O)O | ATCC 14053 |  | >125 µg/mL |
| O=C(NN1C(=O)/C(=C/c2cc3ccccc3nc2Cl)N=C1c1ccccc1)c1ccc(Cl)cc1 | MTCC 227 | broth dilution | 200 µg/mL |
| CCCCn1sc2cc(C(F)(F)F)ccc2c1=O |  |  | 7.5 µg/mL |
| CCOC(=O)C1CC([C@H]2O[C@@H]3OC(C)(C)O[C@@H]3[C@H]2OC)=NO1 |  |  | >50 µg/mL |
| CC1=C(CCc2ccco2)[C@@]2(C)CCC[C@]3(C)C(=O)O[C@H](C1=O)C32 | ATCC 10231 |  | 3.1 µg/mL |
| Clc1ccc(C2CC(c3cccs3)=NN2c2nc(-c3ccccc3)cs2)cc1 | Clinical isolates |  | 250 µg/mL |
| CCCCCCn1sc2ncccc2c1=S |  |  | 30 µg/mL |
| C[C@H]1[C@H](O)[C@@H](C)/C=C/C=C/C=C/C=C/C=C/C=C/C=C/[C@H](O[C@@H]2O[C@H](C)[C@@H](O)[C@H](N)[C@@H]2O)C[C@@H]2O[C@](O)(C[C@@H](O)C[C@@H](O)CC[C@H](O)[C@@H](O)C[C@@H](O)CC(=O)O[C@H]1C)C[C@H](O)[C@H]2C(=O)O | 2381E |  | 0.06 µg/mL |
| Cc1ccc(C2CC(c3cccs3)=NN2c2nc(-c3ccccc3)cs2)cc1 | Clinical isolates |  | 500 µg/mL |
| O=C(NN1C(=O)/C(=C/c2cc3ccccc3nc2Cl)N=C1c1ccccc1)c1ccc(Cl)cc1O | MTCC 227 | broth dilution | 500 µg/mL |
| O=C(CCN1C(=O)S/C(=C\c2ccc(Cl)cc2)C1=O)Nc1ccccc1[N+](=O)[O-] |  |  | 50 µg/mL |
| CC(=CCC/C=C(\C)CCC=C(C)CCC[N+](C)(C)[O-])CC/C=C(\C)CCC1OC1(C)C | ATCC 10231 |  | 120 µM |
| C[C@H]1[C@H](O)[C@@H](C)/C=C/C=C/C=C/C=C/C=C/C=C/C=C/[C@H](O[C@@H]2O[C@H](C)[C@@H](O)[C@H](N)[C@@H]2O)C[C@@H]2O[C@](O)(C[C@@H](O)C[C@@H](O)CC[C@H](O)[C@@H](O)C[C@@H](O)CC(=O)O[C@H]1C)C[C@H](O)[C@H]2C(=O)O | ATCC11651 |  | 1.56 µg/mL |
| O=C(NCCc1ccccc1)c1ccc[nH]c1=S |  |  | 5 µg/mL |
| c1ccc(-c2ccc(COC(Cn3ccnc3)c3ccccc3)cc2)cc1 | CA12 |  | >128 µg/mL |
| CSC1=C(Nc2ccc(Br)cc2Cl)C(=O)c2cccnc2C1=O | ATCC 10231 |  | 25 µg/mL |
| COC(=O)c1cc2ccccc2cc1-c1nn(C(C)=O)c(=S)n1-c1ccc(F)cc1 | ATCC 2091 |  | 500 µg/mL |
| CC(C)(C)c1ccc(COC(Cn2ccnc2)c2ccc(Cl)cc2)cc1 | PR1 |  | >128 µg/mL |
| O=c1cnc2ccc(Cl)c(Cl)c2[nH]1 |  |  | >200 µM |

9 of the rows above, restated:

structure,strain,read by,result
Clc1ccc(C(Cn2ccnc2)OCc2ccc(-c3ccccc3)cc2)c(Cl)c1,CA7,,64 µg/mL
COC(=O)c1cc2ccccc2cc1-c1nn(C(C)=O)c(=S)n1-c1ccc(F)cc1,ATCC 2091,,500 µg/mL
CC1(C)C(=O)CC[C@@]2(C)C1CC[C@]1(C)[C@@H]2[C@H](O)C=C2[C@@H]3C[C@@](C)(C(=O)O)CC[C@]3(C)CC[C@]21C,,absorbance,63 µg/mL
Cc1ccc(C2CC(c3cccs3)=NN2c2nc(-c3ccccc3)cs2)cc1,Clinical isolates,,500 µg/mL
CC(=O)C[C@@H]1C[C@H]2[C@H]([C@@H]3c4[nH]c5ccccc5c4CCN13)[C@H](O)C13CC/C=C\CCCCN1CC21CC/C=C\CCCNC13,,,>20 µg/mL
COc1ccc(OC[C@@H]2CC(Cn3ccnc3)(c3ccco3)N(C)O2)cc1,ATCC26232,,70 µg/mL
CN(CCCC#CC(C)(C)C)c1cccc2c1CCC(=O)N2,Clinical isolate 1,,62.5 µg/mL
CCCCn1sc2cc(C(F)(F)F)ccc2c1=O,,,7.5 µg/mL
c1ccc(-c2ccc(COC(Cn3ccnc3)c3ccccc3)cc2)cc1,CA12,,>128 µg/mL